# Patent publication US20220184071A1, “GEPOTIDACIN FOR USE IN THE TREATMENT OF BACTERIAL URINARY TRACT INFECTIONS” (GlaxoSmithKline Intellectual Property Development Limited, priority 2019, published 2022)
# Experiments:
# [1] = test system: E. coli; test: Phase IIa PK/PD and microbiological response by uropathogen; format: in vivo, human; details: 4 participants with a qualifying E. coli uropathogen; 1500 mg BID oral
# Experimental: This phase IIa single center study evaluated the safety, tolerability, pharmacokinetics, and efficacy of oral gepotidacin 1500 mg BID for 5 days in female subjects with acute cystitis. Clean catch mid-stream urine specimens were obtained for quantitative culture by standard methods. Urine samples were taken from all participants pre-treatment (baseline) and at all post-baseline visits. All urine samples were sent to a central laboratory (PPD Global Clinical Laboratories, Highland Heights, Ky., USA) for Gram stain, quantitative culture, pathogen identification and susceptibility testing. See FIG. 1 for participant disposition and study outline.
# Susceptibility testing by CLSI broth microdilution and gradient diffusion (fosfomycin only) was conducted (CLSI, 2015, Methods for dilution antimicrobial susceptibility tests for bacteria that grow aerobically; approved standard-tenth edition; and CLSI, 2018. Performance Standards for Antimicrobial Susceptibility Testing; Twenty-seventh Informational Supplement M100-S28). […]
# For pharmacokinetic assessments, serial blood and urine samples for the assessment of gepotidacin PK concentrations were collected out to 12 hours post dose (T) following the morning dose on Days 1 and 4. […] PK concentrations of gepotidacin in plasma and urine were measured using a validated LC-MS/MS bio-analytical assay.
# [2] = test system: qualifying Enterobacteriaceae uropathogens; test: Phase IIa PK/PD, participants with steady state PK; format: in vivo, human; details: 4 participants, microbiological successes at TOC
structure (smiles),measurement,setting,value
"O=c1ccc2ncc(=O)n3c2n1C[C@H]3CN1CCC(NCc2cc3c(cn2)OCCC3)CC1 [gepotidacin, (2R)-2-({4-[(3,4-dihydro-2H-pyrano[2,3-c]pyridin-6-ylmethyl)amino]-1-piperidinyl}methyl)-1,2-dihydro-3H,8H-2a,5,8a-triazaacenaphthylene-3,8-dione]",mean gepotidacin free plasma AUC(0-24)/MIC ratio,[1],37.0
same,mean gepotidacin urine AUC(0-24)/MIC ratio,[1],"15,914"
same,plasma fAUC24h/MICs ranged,[2],7 to 90.5 and 6.99-90.5
same,urine AUC24h/MICs ranged,[2],"1292 to 121,698"

# “And” between values parts separate entries of the source, which are not always exact repeats. Identical values can stand only once.
